{
  "source": "patent US20110124715A1",
  "about": "“Antiviral Oligonucleotides Having a Conserved G4 Core Sequence” (priority 1992, published 2011)",
  "key": {"CD4": {"target": "CD4 (Homo sapiens, UniProt P01730)", "assay_type": "binding"}, "CD4/gp120 interaction [1]": {"target": "T1, CD4/gp120 interaction (Human immunodeficiency virus type 1 group M subtype B, UniProt P03375)", "details": "data not shown"}, "[2]": {"experiment": "Fraction tetramer by size exclusion chromatography", "assay_type": "physicochemical"}, "[3]": {"test_system": "HIV proteins (Tat, p24, reverse transcriptase, vif, protease, gp41), soluble CD4 (sCD4) and non-related proteins", "assay_type": "binding", "details": "monomeric and tetrameric forms"}, "V3 loop of gp120": {"target": "V3 loop of gp120 (Human immunodeficiency virus type 1 group M subtype B, UniProt P03375)", "details": "inhibition of binding of V3 loop monoclonal antibody; FIG. 18"}, "CD4/gp120 interaction [4]": {"target": "T1, CD4/gp120 interaction", "details": "plates coated with CD4"}, "CEM-SS cell line": {"test_system": "CEM-SS cell line", "details": "b223"}, "gp120": {"target": "gp120 (Human immunodeficiency virus type 1 group M subtype B, UniProt P03375)", "details": "read-out: dissociation constant (Kd); immobilized gp120; FIG. 16"}},
  "note": "“Also recorded” adds a separate entry of the source. Like-named read-outs stand apart in the source and are kept apart here.",
  "data": [
    {"substance": "T2A4T2-biotin [reference compound]", "values": [
      {"measurement": "Kd", "setting": "CD4", "value": "~240000", "unit": "nM"}
    ]},
    {"substance": "TGTGTGTG [ISIS 6071, reference compound]", "values": [
      {"measurement": "concentration inhibiting 50% of binding of CD4 to immobilized gp120", "setting": "CD4/gp120 interaction [1]", "value": "had no effect"}
    ]},
    {"substance": "TT GGGG TT [ISIS 5320]", "values": [
      {"measurement": "% tetramer", "setting": "[2]; Table 15, in parentheses, asterisk = multiple aggregate species", "value": 93, "unit": "%"},
      {"measurement": "% tetramer", "setting": "[2]; Table 16, asterisk = more than one aggregate species", "value": 98, "unit": "%"},
      {"measurement": "protein binding in gel shift", "setting": "[3]", "value": "bound to BSA and reverse transcriptase; also recorded: Tetramer-specific binding was observed only to gp120 and sCD4"},
      {"measurement": "Ki", "setting": "V3 loop of gp120", "value": "~500", "unit": "nM"},
      {"measurement": "IC50", "setting": "CD4/gp120 interaction [1]; read-out: concentration inhibiting 50% of binding of CD4 to immobilized gp120", "value": "~2500", "unit": "nM"},
      {"measurement": "IC50", "setting": "CD4/gp120 interaction [4]", "value": "~20000", "unit": "nM"},
      {"measurement": "concentration at which cytotoxic effects were observed", "setting": "CEM-SS cell line", "value": "approximately 100 μM"}
    ]},
    {"substance": "TsTsGsGsGsGsTsTsB", "values": [
      {"measurement": "Kd", "setting": "gp120", "value": "< 1000", "unit": "nM"}
    ]}
  ]
}
